{"source": "PubChem BioAssay AID1224833 (University of Georgia, 2016)", "purpose": "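Host factors restraining rotavirus as candidate antiviral genes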 (primary screen)", "cells": "monkey MA104 kidney cells", "reagent": "siRNA pool against human genes, 50 nM", "duration": "48 h knock-down before infection; read 24 h after infection", "treatment": "infection with rotavirus strain RV3 two days after transfection; infectious dose for this stage not given", "measurement": "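Rotavirus antigen per well by fluorescent immunoassay, normalised to non-targeting control wells on each plate and given as a standard z-score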", "direction": "z-score vs non-targeting control: higher = more rotavirus replication than with non-targeting control", "call rule": "In these data the active calls have z-score vs non-targeting control at about -1 or lower, or at about 1 or higher", "meaning of the calls": "active = z-score beyond 1 either way; inactive = z-score within 1 of zero", "note": "The whole screen tested about 12,000 reagents; this is an unselected part. About 5,600 of them (46%) were called active. 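Active calls cover z-scores past 1 in both directions, so they include lowered as well as raised rotavirus replication.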"}
{"target": "RBMY1A1 (RNA binding motif protein Y-linked family 1 member A1)", "z-score vs non-targeting control": 1.56, "activity call": "active"}
{"target": "TSPO2 (translocator protein 2)", "z-score vs non-targeting control": 0.433, "activity call": "inactive"}
{"target": "SPRY3 (sprouty RTK signaling antagonist 3)", "z-score vs non-targeting control": -0.0004, "activity call": "inactive"}
{"target": "NOP10 (NOP10 ribonucleoprotein)", "z-score vs non-targeting control": -0.0079, "activity call": "inactive"}
{"target": "PATE2 (prostate and testis expressed 2)", "z-score vs non-targeting control": 1.79, "activity call": "active"}
{"target": "METTL4 (methyltransferase 4, N6-adenosine)", "z-score vs non-targeting control": -0.626, "activity call": "inactive"}
{"target": "TMPRSS15 (transmembrane serine protease 15)", "z-score vs non-targeting control": 1.2, "activity call": "active"}
{"target": "KRT36 (keratin 36)", "z-score vs non-targeting control": 1.77, "activity call": "active"}
{"target": "TMEM38A (transmembrane protein 38A)", "z-score vs non-targeting control": 0.379, "activity call": "inactive"}
{"target": "PLSCR2 (phospholipid scramblase 2)", "z-score vs non-targeting control": -0.738, "activity call": "inactive"}
{"target": "GALC (galactosylceramidase)", "z-score vs non-targeting control": -0.517, "activity call": "inactive"}
{"target": "AFDN (afadin, adherens junction formation factor)", "z-score vs non-targeting control": 0.0064, "activity call": "inactive"}
{"target": "DLST (dihydrolipoamide S-succinyltransferase)", "z-score vs non-targeting control": 1.1, "activity call": "active"}
{"target": "TAFA3 (TAFA chemokine like family member 3)", "z-score vs non-targeting control": -0.0328, "activity call": "inactive"}
{"target": "TREM2 (triggering receptor expressed on myeloid cells 2)", "z-score vs non-targeting control": 0.988, "activity call": "inactive"}
{"target": "IRS1 (insulin receptor substrate 1)", "z-score vs non-targeting control": 1.39, "activity call": "active"}
{"target": "C1QTNF5 (C1q and TNF related 5)", "z-score vs non-targeting control": -0.783, "activity call": "inactive"}
{"target": "DES (desmin)", "z-score vs non-targeting control": -0.707, "activity call": "inactive"}
{"target": "OR2T12 (olfactory receptor family 2 subfamily T member 12)", "z-score vs non-targeting control": -0.582, "activity call": "inactive"}

As entered above:
DES (desmin), z-score vs non-targeting control: -0.707
Result of TMPRSS15 (transmembrane serine protease 15) in “z-score vs non-targeting control”: 1.2
